Laboratory results published in PMC3904411.

Biological target: ∆PcrG_((13–72)) (Pseudomonas aeruginosa strain 2192)
Experiment: SPR
Conditions: domain or fragment

ΔPcrV_((1–158)) (from UniProt G3XD49 1-158)
Kd: 42.8 µM

ΔPcrV_((1–250)) (from UniProt G3XD49 1-250)
Kd: 21.8 µM

ΔPcrV_((128–250)) (from UniProt G3XD49 128-250)
Kd: 95.1 µM

ΔPcrV_((159–294)) (from UniProt G3XD49 159-294)
Kd: 0.806 µM
